Publication PMC3427316 (PLoS ONE, 2012)

Target: NA of A/California/7/2009(H1N1) (Influenza A virus (A/California/07/2009(H1N1)), UniProt C3W6G3)
Assay type: biochemical, influenza A(H1N1)pdm09 virus
Settings: Cal/7/09; mean±SD of 3 independent determinations

Structure (SMILES): CCC(CC)O[C@@H]1C=C(C(=O)O)C[C@H](N)[C@H]1NC(C)=O [OC, oseltamivir carboxylate]
- Ki: 0.26 nM
